{
  "source": "paper PMC5414288",
  "about": "“^99mTc-radiolabeled GE11-modified peptide for ovarian tumor targeting” (DARU Journal of Pharmaceutical Sciences, 2017)",
  "system": "SKOV3 cells",
  "assay": "Cellular specific binding",
  "assay_type": "cell-based, human",
  "details": "500-fold molar excess of antibody",
  "data": [
    {"substance": "trastuzumab: HER2-specific antibody", "values": [
      {"measurement": "Specific binding of ^99mTc-tricine-HYNIC-SSS-GE11 in SKOV3 cells after pre-incubation with antibody", "result": "decreased significantly"}
    ]}
  ]
}
